Laboratory results taken from patent US20190256564A1, “NEMERTEA-DERIVED BIOACTIVE COMPOUNDS” (priority 2016, published 2019).
“Also recorded” adds a separate entry of the source.

The chains behind the UniProt entries cited, without tags or fusion partners.
UniProt P15390, whole entry: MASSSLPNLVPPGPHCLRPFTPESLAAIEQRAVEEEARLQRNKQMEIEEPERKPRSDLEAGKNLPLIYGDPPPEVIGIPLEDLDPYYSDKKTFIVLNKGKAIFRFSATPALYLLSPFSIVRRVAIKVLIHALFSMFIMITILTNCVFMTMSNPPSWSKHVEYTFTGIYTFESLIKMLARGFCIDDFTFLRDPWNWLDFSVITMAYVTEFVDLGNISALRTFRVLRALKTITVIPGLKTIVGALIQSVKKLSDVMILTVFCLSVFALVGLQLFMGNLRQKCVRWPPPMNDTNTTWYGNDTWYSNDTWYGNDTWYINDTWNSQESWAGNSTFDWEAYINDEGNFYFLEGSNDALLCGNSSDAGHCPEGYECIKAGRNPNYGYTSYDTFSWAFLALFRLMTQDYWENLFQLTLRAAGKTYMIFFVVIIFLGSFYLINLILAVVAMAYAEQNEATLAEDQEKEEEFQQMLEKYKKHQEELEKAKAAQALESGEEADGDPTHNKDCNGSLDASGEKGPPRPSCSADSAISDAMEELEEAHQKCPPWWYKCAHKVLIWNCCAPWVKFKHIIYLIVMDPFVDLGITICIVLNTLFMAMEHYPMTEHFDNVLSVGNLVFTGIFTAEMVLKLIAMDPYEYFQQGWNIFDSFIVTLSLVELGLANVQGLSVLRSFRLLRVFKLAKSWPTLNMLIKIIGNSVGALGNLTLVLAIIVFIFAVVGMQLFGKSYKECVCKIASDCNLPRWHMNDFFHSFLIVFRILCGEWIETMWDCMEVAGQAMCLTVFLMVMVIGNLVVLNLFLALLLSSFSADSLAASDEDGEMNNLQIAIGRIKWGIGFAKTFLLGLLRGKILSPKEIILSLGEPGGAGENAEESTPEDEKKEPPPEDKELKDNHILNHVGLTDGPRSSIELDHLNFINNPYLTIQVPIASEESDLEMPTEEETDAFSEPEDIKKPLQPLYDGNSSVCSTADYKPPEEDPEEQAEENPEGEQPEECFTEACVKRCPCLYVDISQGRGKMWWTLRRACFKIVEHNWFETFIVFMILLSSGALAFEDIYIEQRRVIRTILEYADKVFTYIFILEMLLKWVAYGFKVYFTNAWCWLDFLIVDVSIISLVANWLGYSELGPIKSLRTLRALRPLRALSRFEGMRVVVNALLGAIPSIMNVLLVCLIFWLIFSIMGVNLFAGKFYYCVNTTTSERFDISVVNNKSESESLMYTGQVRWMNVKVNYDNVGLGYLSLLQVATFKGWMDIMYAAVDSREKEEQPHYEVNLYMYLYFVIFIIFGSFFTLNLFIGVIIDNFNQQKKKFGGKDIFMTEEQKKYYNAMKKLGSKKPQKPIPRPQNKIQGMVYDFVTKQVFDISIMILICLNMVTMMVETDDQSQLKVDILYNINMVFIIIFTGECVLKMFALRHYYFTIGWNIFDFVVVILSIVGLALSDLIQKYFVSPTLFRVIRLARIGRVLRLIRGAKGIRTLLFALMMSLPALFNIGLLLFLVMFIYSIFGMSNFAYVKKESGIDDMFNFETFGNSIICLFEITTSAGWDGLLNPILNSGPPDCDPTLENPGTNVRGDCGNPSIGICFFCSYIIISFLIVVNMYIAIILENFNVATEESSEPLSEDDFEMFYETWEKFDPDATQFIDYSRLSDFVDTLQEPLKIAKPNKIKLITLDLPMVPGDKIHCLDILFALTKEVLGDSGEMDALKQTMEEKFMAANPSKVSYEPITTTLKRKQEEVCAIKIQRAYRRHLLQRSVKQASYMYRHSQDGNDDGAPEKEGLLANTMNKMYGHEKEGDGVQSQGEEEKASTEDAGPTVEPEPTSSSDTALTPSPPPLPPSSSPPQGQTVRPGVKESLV
UniProt Q9WTU3, whole entry: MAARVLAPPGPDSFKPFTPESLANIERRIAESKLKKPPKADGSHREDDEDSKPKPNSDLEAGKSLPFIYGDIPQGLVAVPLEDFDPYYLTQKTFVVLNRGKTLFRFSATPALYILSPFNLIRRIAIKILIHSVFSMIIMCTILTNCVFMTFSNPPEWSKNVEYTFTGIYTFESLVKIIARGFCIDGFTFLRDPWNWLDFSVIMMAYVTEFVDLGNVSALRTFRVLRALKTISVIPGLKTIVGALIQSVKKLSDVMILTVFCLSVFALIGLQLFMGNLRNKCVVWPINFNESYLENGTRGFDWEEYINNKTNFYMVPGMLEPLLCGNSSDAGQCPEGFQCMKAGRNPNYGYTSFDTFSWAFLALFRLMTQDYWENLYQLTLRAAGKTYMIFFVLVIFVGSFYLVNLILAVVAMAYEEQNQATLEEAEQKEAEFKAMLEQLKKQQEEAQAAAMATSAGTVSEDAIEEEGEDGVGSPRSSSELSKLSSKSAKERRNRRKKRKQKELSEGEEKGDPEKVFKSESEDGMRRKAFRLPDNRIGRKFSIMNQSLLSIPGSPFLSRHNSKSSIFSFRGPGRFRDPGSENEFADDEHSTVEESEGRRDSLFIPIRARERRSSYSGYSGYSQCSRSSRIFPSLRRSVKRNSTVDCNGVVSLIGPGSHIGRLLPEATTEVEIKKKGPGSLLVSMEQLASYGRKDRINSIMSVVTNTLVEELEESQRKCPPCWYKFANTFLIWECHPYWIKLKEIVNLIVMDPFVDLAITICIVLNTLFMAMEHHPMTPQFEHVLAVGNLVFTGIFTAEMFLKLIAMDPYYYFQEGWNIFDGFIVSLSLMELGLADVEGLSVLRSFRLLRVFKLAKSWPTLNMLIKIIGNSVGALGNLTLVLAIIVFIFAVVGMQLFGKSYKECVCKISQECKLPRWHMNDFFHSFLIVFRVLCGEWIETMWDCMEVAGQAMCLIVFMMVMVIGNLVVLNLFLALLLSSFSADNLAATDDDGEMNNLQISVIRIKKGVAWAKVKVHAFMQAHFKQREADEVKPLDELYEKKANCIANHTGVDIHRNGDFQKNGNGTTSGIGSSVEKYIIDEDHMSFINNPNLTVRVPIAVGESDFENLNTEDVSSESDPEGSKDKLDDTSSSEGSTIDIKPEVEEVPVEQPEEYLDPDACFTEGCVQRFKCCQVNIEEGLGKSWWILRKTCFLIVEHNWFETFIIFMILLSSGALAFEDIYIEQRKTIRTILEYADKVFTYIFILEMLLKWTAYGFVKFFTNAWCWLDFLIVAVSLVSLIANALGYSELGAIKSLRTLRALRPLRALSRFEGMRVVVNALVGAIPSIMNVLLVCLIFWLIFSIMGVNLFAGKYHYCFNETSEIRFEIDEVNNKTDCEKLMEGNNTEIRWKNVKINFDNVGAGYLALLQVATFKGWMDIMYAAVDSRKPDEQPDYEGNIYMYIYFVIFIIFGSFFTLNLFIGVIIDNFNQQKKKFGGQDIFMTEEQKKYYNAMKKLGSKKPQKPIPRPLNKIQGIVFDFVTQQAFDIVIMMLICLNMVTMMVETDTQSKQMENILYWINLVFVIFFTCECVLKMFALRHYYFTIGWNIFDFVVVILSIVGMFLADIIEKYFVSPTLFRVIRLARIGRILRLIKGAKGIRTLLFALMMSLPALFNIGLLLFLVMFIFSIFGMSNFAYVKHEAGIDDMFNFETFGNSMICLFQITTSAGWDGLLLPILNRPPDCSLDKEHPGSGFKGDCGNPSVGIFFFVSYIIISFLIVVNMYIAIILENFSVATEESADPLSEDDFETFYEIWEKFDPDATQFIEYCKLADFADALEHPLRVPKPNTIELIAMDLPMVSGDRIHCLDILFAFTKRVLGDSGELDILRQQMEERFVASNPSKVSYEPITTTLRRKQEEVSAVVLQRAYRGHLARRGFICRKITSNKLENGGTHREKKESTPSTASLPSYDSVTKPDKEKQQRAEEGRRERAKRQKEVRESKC
UniProt P35500, whole entry: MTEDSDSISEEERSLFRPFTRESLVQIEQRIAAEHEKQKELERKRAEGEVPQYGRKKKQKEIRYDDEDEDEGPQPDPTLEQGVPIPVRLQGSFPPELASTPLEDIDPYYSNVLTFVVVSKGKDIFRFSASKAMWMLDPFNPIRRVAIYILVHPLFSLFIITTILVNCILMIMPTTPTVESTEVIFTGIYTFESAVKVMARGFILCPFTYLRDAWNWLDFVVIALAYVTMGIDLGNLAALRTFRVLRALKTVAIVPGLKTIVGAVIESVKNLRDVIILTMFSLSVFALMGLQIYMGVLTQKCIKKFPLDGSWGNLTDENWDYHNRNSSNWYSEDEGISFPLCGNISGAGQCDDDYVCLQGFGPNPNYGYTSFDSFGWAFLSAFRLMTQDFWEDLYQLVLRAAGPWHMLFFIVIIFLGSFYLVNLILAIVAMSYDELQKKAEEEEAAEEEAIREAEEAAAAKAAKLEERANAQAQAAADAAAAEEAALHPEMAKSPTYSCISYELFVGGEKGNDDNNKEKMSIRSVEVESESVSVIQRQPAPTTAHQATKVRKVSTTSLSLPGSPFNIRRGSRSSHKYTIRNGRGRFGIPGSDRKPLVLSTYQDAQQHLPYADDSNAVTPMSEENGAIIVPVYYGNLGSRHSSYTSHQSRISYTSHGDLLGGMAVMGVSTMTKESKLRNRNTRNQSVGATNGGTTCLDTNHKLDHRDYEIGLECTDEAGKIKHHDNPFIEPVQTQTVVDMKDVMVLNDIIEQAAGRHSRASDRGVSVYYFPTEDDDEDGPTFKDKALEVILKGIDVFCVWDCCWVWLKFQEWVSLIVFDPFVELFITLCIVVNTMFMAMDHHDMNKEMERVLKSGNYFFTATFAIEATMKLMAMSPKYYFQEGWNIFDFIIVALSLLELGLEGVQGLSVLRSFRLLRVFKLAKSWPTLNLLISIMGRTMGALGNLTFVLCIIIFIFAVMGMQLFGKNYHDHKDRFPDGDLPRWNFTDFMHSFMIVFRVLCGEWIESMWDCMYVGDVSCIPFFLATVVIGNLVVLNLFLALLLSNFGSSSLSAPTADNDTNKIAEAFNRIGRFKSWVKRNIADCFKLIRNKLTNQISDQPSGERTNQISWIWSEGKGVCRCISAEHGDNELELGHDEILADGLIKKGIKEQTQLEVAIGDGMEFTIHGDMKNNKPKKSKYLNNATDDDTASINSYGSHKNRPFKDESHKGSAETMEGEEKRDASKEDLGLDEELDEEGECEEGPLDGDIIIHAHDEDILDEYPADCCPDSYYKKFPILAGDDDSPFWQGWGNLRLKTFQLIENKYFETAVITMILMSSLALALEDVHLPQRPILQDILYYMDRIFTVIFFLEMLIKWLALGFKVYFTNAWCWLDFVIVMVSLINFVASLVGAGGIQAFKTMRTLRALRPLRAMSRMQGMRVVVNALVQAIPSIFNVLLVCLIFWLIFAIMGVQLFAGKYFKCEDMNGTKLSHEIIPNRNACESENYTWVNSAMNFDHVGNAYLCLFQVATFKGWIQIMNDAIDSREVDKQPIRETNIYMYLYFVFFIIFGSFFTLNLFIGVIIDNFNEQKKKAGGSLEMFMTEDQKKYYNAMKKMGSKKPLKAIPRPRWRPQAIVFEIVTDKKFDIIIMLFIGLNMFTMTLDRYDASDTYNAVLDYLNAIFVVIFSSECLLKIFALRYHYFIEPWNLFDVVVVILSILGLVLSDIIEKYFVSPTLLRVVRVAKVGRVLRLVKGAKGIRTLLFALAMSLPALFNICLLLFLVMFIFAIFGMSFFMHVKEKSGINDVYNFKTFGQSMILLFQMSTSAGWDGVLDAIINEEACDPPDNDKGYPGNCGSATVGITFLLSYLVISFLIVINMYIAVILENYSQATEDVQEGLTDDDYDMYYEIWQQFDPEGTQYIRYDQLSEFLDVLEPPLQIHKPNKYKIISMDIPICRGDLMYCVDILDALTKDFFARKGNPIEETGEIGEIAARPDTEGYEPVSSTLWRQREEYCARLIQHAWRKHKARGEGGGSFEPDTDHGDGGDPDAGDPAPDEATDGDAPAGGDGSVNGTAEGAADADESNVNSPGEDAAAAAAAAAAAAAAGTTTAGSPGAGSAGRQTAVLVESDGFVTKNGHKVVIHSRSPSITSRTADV

Experiments:
Nav1.1 = Nav1.1 (Rattus norvegicus, UniProt P04774); test: Two-electrode voltage clamp, Nav1.1 expressed in Xenopus oocytes; format: cell-based; settings: 6 μM
Nav1.4 = Nav1.4 (Rattus norvegicus, UniProt P15390); test: Two-electrode voltage clamp, Nav1.4 expressed in Xenopus oocytes; format: cell-based
Nav1.5 = Nav1.5 (Homo sapiens, UniProt Q14524); test: Two-electrode voltage clamp, Nav1.5 expressed in Xenopus oocytes; format: cell-based
Nav1.6 = Nav1.6 (Mus musculus, UniProt Q9WTU3); test: Two-electrode voltage clamp, Nav1.6 expressed in Xenopus oocytes; format: cell-based
BgNav1 = test: Two-electrode voltage clamp, BgNav1 expressed in Xenopus oocytes; format: cell-based, Blattella germanica
DmNav1 = DmNav1 (Drosophila melanogaster, UniProt P35500); test: Two-electrode voltage clamp, DmNav1 expressed in Xenopus oocytes; format: cell-based
VdNav1 = test: Two-electrode voltage clamp, VdNav1 expressed in Xenopus oocytes; format: cell-based, Varroa destructor; settings: 1 μM

CC[C@H](C)[C@@H]1NC(=O)[C@@H](NC(=O)CN)CSSC[C@@H]2NC(=O)[C@@H]3CSSC[C@@H](C(=O)N[C@@H](CC(N)=O)C(=O)N4C[C@H](O)C[C@H]4C(=O)N4C[C@H](O)C[C@H]4C(=O)N[C@@H](CC(N)=O)C(=O)N[C@@H](CCC(N)=O)C(=O)O)NC(=O)[C@H](CCCCN)NC(=O)[C@H](Cc4ccccc4)NC(=O)[C@H](CC(N)=O)NC(=O)[C@H](Cc4c[nH]c5ccccc45)NC(=O)CNC(=O)[C@H](CSSC[C@H](NC(=O)[C@H](Cc4ccccc4)NC(=O)[C@H](CO)NC(=O)CNC(=O)[C@H]([C@@H](C)O)NC(=O)[C@H](C)NC1=O)C(=O)N[C@@H]([C@@H](C)O)C(=O)N[C@@H](CC(C)C)C(=O)N[C@@H](CO)C(=O)N[C@@H](CCCCN)C(=O)NCC(=O)N3)NC(=O)[C@H](CC(N)=O)NC(=O)[C@H](CCCCN)NC(=O)[C@H]([C@@H](C)O)NC2=O [Nemertide α-1]
kinetics of gating of Nav1.1 (steady-state activation and inactivation) (Nav1.1): No significant alterations | effect on inactivation of Nav1.4 (Nav1.4; 6 μM): significantly delayed the inactivation | midpoint of activation of Nav1.4 (Nav1.4; 6 μM): did not shift significantly | V1/2 of inactivation of Nav1.4 (Nav1.4; in the presence of 6 μM toxin, control −38.1±0.2 mV): −48.6±0.4 mV | midpoint of activation of Nav1.5 (Nav1.5; after application of 6 μM toxin, control −42.4±0.1 mV): −36.3±0.1 mV | midpoint of inactivation of Nav1.5 (Nav1.5; in the presence of 6 μM toxin, control −62.2±0.2 mV): −50.6±0.1 mV | V1/2 of inactivation of Nav1.6 (Nav1.6; 6 μM toxin, control −53, 6±0.5 mV): −49.8±0.2 mV | V1/2 of activation of Nav1.6 (Nav1.6; after application of 6 μM, control −20.8±0.1 mV): −17.3±0.3 mV | EC50 (Nav1.6; concentration-response curve, read-out: EC50 of modulatory effect on Nav1.6): 800 nM | effect on recovery from inactivation of BgNav1 (BgNav1; 10 nM): significantly enhanced the recovery from inactivation | state-dependence of toxin interaction with BgNav (BgNav1; 10 nM, 2 minutes incubation without pulsing): open state is not required for toxin interaction with the channel | τ of recovery from inactivation of BgNav1 (BgNav1; 10 nM, control 11.6±0.4 ms): 3.8 ± 0.5 ms | V1/2 of activation of BgNav1 (BgNav1; 10 nM, control −29.1±2.2 mV): −32.5±3.2 mV | EC50 (BgNav1; concentration-response curve): 8.6 ± 2.9 nM | effect on inactivation of DmNav1 (DmNav1; 1 μM): complete inhibition of the inactivation; also recorded: completely inhibited their inactivation | EC50 (DmNav1; read-out: EC50 on insect (DmNav1) channel): 8 nM | effect on inactivation of VdNav1 (VdNav1): completely inhibited their inactivation
